Compound potency records, mixed from different reports. Data source: NIAID ChemDB in PubChem.

All rows: whole-cell or culture tests; species: HIV-1; read-out: EC50

ECn is the concentration giving n% inhibition of infection, replication or growth. a–b is a range or a potency band. Blank or dashed fields: not listed here. Conditions beyond the fields shown may differ between rows.

smiles,strain or isolate,cells,changes,conditions,read by,value
C#C[C@]1(COC(=O)CCCC)O[C@@H](n2cnc3c(N)nc(F)nc32)C[C@@H]1O,NL4-3,U373-CD4-CXCR4,M184V,pseudotyped,-,0.019 µM
O=C1NC(=NCc2cccc(F)c2)S/C1=C\c1ccc(-c2ccc(C(=O)O)c(O)c2)o1,NL4-3,TZM-bl,-,-,β-galactosidase,3 µM
COCc1nc(Nc2ccc(C#N)cc2)nc(Nc2c(C)cc(/C=C/C#N)cc2C)c1C(=O)N(C)CCN(C)C,IIIB,MT4 CMV-EGFP,-,-,-,0.0324 µM
C#C[C@]1(COC(=O)CCCCCCCCCCCCCCCCCCC)O[C@@H](n2cnc3c(N)nc(F)nc32)C[C@@H]1O,NL4-3,U373-CD4-CXCR4,M184V,pseudotyped,-,0.333 µM
Cc1ncc(-c2cnc(OCC3(C)CC3)c(F)c2)c(N2CCC(C)(C)CC2)c1[C@H](OC(C)(C)C)C(=O)O,NL4-3,MT-2,-,-,luminescence,0.0078 µM
C#C[C@]1(COC(=O)CCCCCCCC#CC)O[C@@H](n2cnc3c(N)nc(F)nc32)C[C@@H]1O,NL4-3,U373-CD4-CXCR4,M184V,pseudotyped,-,0.013 µM
Cc1cc(OCCOc2ccc(-c3cnc(C)c([C@H](OC(C)(C)C)C(=O)O)c3N3CCC(C)(C)CC3)cn2)ccc1F,NL4-3,MT-2,-,-,luminescence,0.0054 µM
Nc1nc(NC2CC2)c2ncn([C@H]3C=C[C@@H](CO)C3)c2n1,RF,C8166,-,-,cytopathic effect / XTT,2.9 µM
Cc1ncc(-c2ccc(OC[C@H](C)Oc3ccccc3)cn2)c(N2CCC(C)(C)CC2)c1[C@H](OC(C)(C)C)C(=O)O,NL4-3,MT-2,-,-,luminescence,0.001 µM
CCN1c2ncc(CCOc3ccc(-c4ccc(C(O)C(=O)O)cc4)cc3C)cc2C(=O)N(C)c2cccnc21,-,C8166,RT-K103N Y181C,-,p24,0.01–0.05 µM
COCc1nc(Nc2ccc(C#N)cc2)nc(Nc2c(C)cc(/C=C/C#N)cc2C)c1C(=O)NCc1cccs1,L1001+K103N,MT4 CMV-EGFP,-,-,-,0.107 µM
Cc1ncc(-c2cnc(OCCOc3ccc(Cl)cc3F)c(F)c2)c(N2CCC(C)(C)CC2)c1[C@H](OC(C)(C)C)C(=O)O,NL4-3,MT-2,-,-,luminescence,0.0019 µM
C#C[C@]1(COC(=O)CCCCCCCC#CCCCCCCCC)O[C@@H](n2cnc3c(N)nc(F)nc32)C[C@@H]1O,NL4-3,U373-CD4-CXCR4,M184V,pseudotyped,-,0.014 µM
COc1cc(Cl)ccc1OCCNc1ccc(-c2cnc(C)c([C@H](OC(C)(C)C)C(=O)O)c2N2CCC(C)(C)CC2)nc1,NL4-3,MT-2,-,-,luminescence,0.002 µM
COCc1nc(Nc2ccc(C#N)cc2)nc(Nc2c(C)cc(/C=C/C#N)cc2C)c1C(=O)NCCN1CCOCC1,K103N + Y181C,MT4 CMV-EGFP,-,-,-,0.0617 µM
Cc1cn([C@H]2C[C@H](N=[N+]=[N-])[C@@H](COP(=O)(N[C@@H](C)C(=O)OCc3ccccc3)OCC(Cl)(Cl)Cl)O2)c(=O)[nH]c1=O,RF,C8166,-,-,ELISA,0.03 µM
Cc1cc(C#CCCO)cc(C)c1Oc1ccnc(Nc2ccc(C#N)cc2)n1,IIIB,MT-4,F227L + V106A,-,MTT,1.684 µM
C#C[C@@]1(COP(=O)(O)OP(=O)(O)OP(=O)(O)O)C=C[C@H](n2cc(C)c(=O)[nH]c2=O)O1,NL4-3,TZM-bl,T165A/M184V,-,luciferase,6 µM
COCc1nc(Nc2ccc(C#N)cc2)nc(Nc2c(C)cc(/C=C/C#N)cc2C)c1C(=O)N1CCN(CCO)CC1,L1001+K103N,MT4 CMV-EGFP,-,-,-,0.257 µM
CCN1c2ncc(CCOc3ccc(-c4cn(C)cn4)cc3C)cc2C(=O)N(C)c2cccnc21,-,C8166,RT-K103N Y181C,-,p24,<0.01 µM
CCN(CC)P(=O)(OC[C@H]1O[C@@H](n2cc(C)c(=O)[nH]c2=O)C[C@@H]1N=[N+]=[N-])N(CC)CC,RF,C8166,-,-,ELISA,6 µM
O=C1NC(=Nc2ccc(Cl)c(F)c2)S/C1=C\c1ccc(-c2ccc(C(=O)O)c(O)c2)o1,NL4-3,TZM-bl,-,-,β-galactosidase,1.8 µM
COCc1nc(Nc2ccc(C#N)cc2)nc(Nc2c(C)cc(/C=C/C#N)cc2C)c1C(=O)N1CCN(C)CC1,MDR,MT4 CMV-EGFP,-,-,-,9.55 µM
COC(=O)C[C@H](NP(=O)(N[C@@H](CC(=O)OC)C(=O)OC)OC[C@H]1O[C@@H](n2cc(C)c(=O)[nH]c2=O)C[C@@H]1N=[N+]=[N-])C(=O)OC,RF,C8166,-,-,ELISA,0.9 µM
COCc1nc(Nc2ccc(C#N)cc2)nc(Oc2c(C)cc(/C=C/C#N)cc2C)c1C(=O)NCc1ccncc1,K103N + Y181C,MT4 CMV-EGFP,-,-,-,0.0631 µM
CCCNP(=O)(NCCC)OC[C@H]1O[C@@H](n2cc(C)c(=O)[nH]c2=O)C[C@@H]1N=[N+]=[N-],RF,C8166,-,-,ELISA,15 µM
O=C1NC(=NCCc2ccc(F)cc2)S/C1=C\c1ccc(-c2ccc(C(=O)O)c(O)c2)o1,-,TZM-bl,-,pseudotyped,β-galactosidase,5.6 µM
CCN1c2ncc(CCOc3ccc(-c4ccc(C(C)C(=O)O)cc4)cc3C)cc2C(=O)N(C)c2cccnc21,-,C8166,RT-K103N Y181C,-,p24,0.01–0.05 µM
O=C1NC(=NCCc2ccc(F)cc2)S/C1=C\c1ccc(-c2cccc([N+](=O)[O-])c2)o1,NL4-3,TZM-bl,-,-,β-galactosidase,>10 µM
CCN1c2ncc(CCOc3ccc(C(=O)Nc4ccc(C(=O)O)cc4)cc3C)cc2C(=O)Nc2c(C)ccnc21,-,C8166,RT-K103N Y181C,-,p24,>0.05 µM
Cc1cccc(C)c1OCCN(C)c1ccc(-c2cnc(C)c([C@H](OC(C)(C)C)C(=O)O)c2N2CCC(C)(C)CC2)nc1,NL4-3,MT-2,-,-,luminescence,0.0032 µM
COC(=O)[C@H](C)NP(=O)(N[C@@H](C)C(=O)OC)OC[C@H]1O[C@@H](n2cc(C)c(=O)[nH]c2=O)C[C@@H]1N=[N+]=[N-],RF,C8166,-,-,ELISA,2 µM
O=C1NC(=NCc2ccc(Cl)c(Cl)c2)S/C1=C\c1ccc(-c2ccc(C(=O)O)c(O)c2)o1,AD8,TZM-bl,-,-,β-galactosidase,2 µM

The first 3 rows once more:

| smiles | strain or isolate | cells | changes | conditions | read by | value |
|---|---|---|---|---|---|---|
| C#C[C@]1(COC(=O)CCCC)O[C@@H](n2cnc3c(N)nc(F)nc32)C[C@@H]1O | NL4-3 | U373-CD4-CXCR4 | M184V | pseudotyped | - | 0.019 µM |
| O=C1NC(=NCc2cccc(F)c2)S/C1=C\c1ccc(-c2ccc(C(=O)O)c(O)c2)o1 | NL4-3 | TZM-bl | - | - | β-galactosidase | 3 µM |
| COCc1nc(Nc2ccc(C#N)cc2)nc(Nc2c(C)cc(/C=C/C#N)cc2C)c1C(=O)N(C)CCN(C)C | IIIB | MT4 CMV-EGFP | - | - | - | 0.0324 µM |